B1: 240-14 IgA 2F02 Fab (Fab, V domains shown)
VH: EVQLLESGGGLVQPGGSLRLSCAASGFTFSTYAMSWVRQAPGKGLEWVSTISGSGGSTYDAESVKGRFTISRDNSKNTLYLQMNSLRAEDTAVYYCAKEGGDFWSGYYANWFDPWGQGTLVTVSS
VL: QSALTQPRSVSGSPGQSVTISCTGTRSDVGGYNYVSWYQQHPGKAPKVIIYDVKKRPSGVPDRFSGSKSGNTASLTISGLQAEDEADYYCSAFAGSHTLFGGGTKVTVL
B2: AG2-G02 Fab (Fab, V domains shown)
VH: VQLVQSGAEMKKPGASVKVSCKASGYTFSAYYIHWVRQAPGQGLEWMGRINTDSGGTNFAQQFEGRVTMTRDTSISTAYMELSSLRSDDTAVYYCARGYDFWLGSYRAGGWFDPWGQGTLVTVSS
VL: not shown

Biological target: H3N8 A/mallard/Alberta/362/2017 HA ectodomain (influenza A virus H3N8 …)
Experiment: cryo-EM structure

Row | Binder | stoichiometry N [copies per HA trimer]
1 | B1 | 3
2 | B2 | 3

Reference: publication PMC12658140 (Nature Communications, 2025)
